# Assay results as given in PubChem BioAssay AID602313 (National Center for Advancing Translational Sciences (NCATS), 2012).
# This is a selection; strong and weak results do not stand in their true shares. Active and inactive are the calls of the source. The call rests on the fitted dose curve; in most records, active means well fitted inhibition curve with a large enough effect; inconclusive means small, poorly fitted or top-dose-only effect; inactive means flat fitted curve, though single readings scatter.
# Assay: qHTS for Inhibitors of Vif-A3F Interactions: qHTS; further: % of control where 0% means no effect; nearly all actives have a fitted effect of over 65% in size
# Settings: HeLa A3F-eYFP + Vif (tagged APOBEC3F with the HIV-1 protein that degrades it), YFP fluorescence increase; at 46.1 µM (top of the series)
# Description: The recent discovery and characterization of host restriction factors, which provide a potent defense to invading retroviruses, has provided new targets for antiviral drug development. APOBEC3G (A3G) and APOBEC3F (A3F) are potent cytidine deaminases that block HIV-1 replication; HIV-1 expresses the Vif protein, which counteracts A3G and A3F by binding to them and inducing their proteasomal degradation. The Vif-A3G and Vif-A3F interactions provide two potential targets for development of small molecules which can interfere with the ability of Vif to degrade A3G or A3F. […] To identify inhibitors that can interfere with Vif mediated degradation of A3G and A3F, we have developed Hela cell lines that stably express A3G or A3F tagged with eYFP at the C-terminal end (A3G-eYFP or A3F-eYFP, respectively) and Vif. In the absence of an inhibitor, Vif induces degradation of A3G-eYFP and A3F-eYFP, and the cells are not fluorescent. In the presence of an inhibitor, it is expected that Vif will be unable to degrade A3G-eYFP and/or A3F-eYFP, resulting in an increase in yellow fluorescence. In this assays Vif A3F was screened against the Molecular Library Small Molecule Repository (MLSMR). NIH Chemical Genomics Center [NCGC] NIH Molecular Libraries Probe Centers Network [MLPCN] MLPCN Grant: MH093245 Assay Submitter (PI): Vinay Pathak, National Cancer Institute
# 5 uL of 700 cells/well of A3F-YFP cells are dispensed into black, clear bottom plates. The plates are incubated overnight at 37 deg C. 23 nL of compounds are added by pintool. The plates are incubated overnight at 37 deg C and then read on the TTP Acumen (Ex 488/ Em 500-530).
row,SMILES,"activity, negative = active"
1,CCc1ccc(OP(C)(=O)O)cc1,inactive: 4.45%
2,COc1ccccc1OP(C)(=O)Nc1ccc(C)cc1C (stereo unspecified),inactive: 5.32%
3,CP(=O)(Nc1ccccn1)Oc1ccccc1 (stereo unspecified),inactive: 2.62%
4,Cc1c(NP(C)(=O)Oc2ccc(C(C)C)cc2)c(=O)n(-c2ccccc2)n1C (stereo unspecified),inactive: 2.7%
5,O=[N+]([O-])c1cc([N+](=O)[O-])c(Nc2ccccn2)c([N+](=O)[O-])c1,inactive: 0.217%
6,CN(C)CCOC(=O)C(O)(c1ccccc1)C1CCCC1 (stereo unspecified),inactive: 4.82%
7,COc1ccc(OP(C)(=O)Nc2ccccn2)cc1 (stereo unspecified),inactive: -7.66%
8,COc1ccccc1OP(C)(=O)Nc1ccc(Br)cc1 (stereo unspecified),inactive: 4.64%
9,CP(=O)(Nc1ccc(Cl)cc1Cl)Oc1ccccc1 (stereo unspecified),inactive: 8.47%
10,CCCCCCCCCCCCCCCC1C[N+](C)(C)CCOP(C)(=O)O1 (stereo unspecified),inactive: -0.798%
11,CP(=O)(OCCOc1ccccc1)OCCOc1ccccc1,inactive: 0.847%
12,COc1ccc(OP(C)(=O)Nc2ccccc2Br)cc1 (stereo unspecified),inactive: 0.806%
13,COc1ccccc1OP(C)(=O)Nc1ccc(C)c(C)c1 (stereo unspecified),inactive: 2.08%
14,Cc1cc(C)cc(OP(C)(=O)Nc2cccc(C(F)(F)F)c2)c1 (stereo unspecified),inactive: 3.75%
15,CP(=O)(OC12CC3CC(CC(C3)C1)C2)OC12CC3CC(CC(C3)C1)C2,inactive: 1.2%
16,CCOC(=O)c1ccc(NP(C)(=O)Oc2ccc(Cl)cc2)cc1 (stereo unspecified),inactive: -0.619%
17,Nc1ccc2c(ccc3cccnc32)n1.O=[N+]([O-])c1cc([N+](=O)[O-])c(O)c([N+](=O)[O-])c1,inactive: -2.04%
18,CN(C)C(=O)c1c([N+](=O)[O-])cc([N+](=O)[O-])cc1[N+](=O)[O-],inactive: 4.86%
19,CP(=O)(Nc1ccc(Cl)cc1)Oc1ccc(F)cc1 (stereo unspecified),inactive: -7.5%
20,COc1ccccc1OP(C)(=O)Nc1ccccc1Br (stereo unspecified),inactive: -4.35%
21,CC(C)(C)c1ccc(OP(C)(=O)O)cc1,inactive: 0.725%
22,CCc1ccc(OP(C)(=O)Nc2cccnc2)cc1 (stereo unspecified),inactive: 1.66%

row,SMILES,"activity, negative = active"
1,CP(=O)(Oc1ccccc1)N1CCOC1=O (stereo unspecified),inactive: 0.0195%
2,O=C(OCCCN1CCCC1)C(O)(c1ccccc1)C1CCCCC1 (stereo unspecified),inactive: -3.04%
3,COc1ccccc1OP(C)(=O)Nc1c(C)n(C)n(-c2ccccc2)c1=O (stereo unspecified),inactive: -0.669%
4,COc1ccc(OP(C)(=O)Nc2ccc(Br)cc2)cc1 (stereo unspecified),inactive: -0.158%
5,CCN(CC)CC(O)COC(=O)C(O)(c1ccccc1)C1CCCCC1 (stereo unspecified),inactive: 2.15%
6,Cc1ccccc1NP(C)(=O)Nc1ccccc1C,inactive: 5.9%
7,CP(=O)(Nc1ccc2c(c1)OCCO2)Oc1ccccc1 (stereo unspecified),inactive: 1.72%
8,CCOP(C)(=S)SCC(=O)NC(C)(CC)C(=O)O (stereo unspecified),inactive: 7.35%
9,CP(=O)(Nc1ccc(SC(F)(F)F)cc1)Oc1ccc(F)cc1 (stereo unspecified),inactive: 1.85%
10,Cc1c(C(c2ccc3c(c2)OCO3)c2c(C)n(C)n(-c3ccccc3)c2=O)c(=O)n(-c2ccccc2)n1C.O=[N+]([O-])c1cc([N+](=O)[O-])c(O)c([N+](=O)[O-])c1,inactive: 1.08%
11,Cc1cc(-c2cccc3ccccc23)c(C)cn1.O=[N+]([O-])c1cc([N+](=O)[O-])c(O)c([N+](=O)[O-])c1,inactive: -9.16%
12,O=[N+]([O-])c1ccc(OP2(=O)COCCO2)cc1 (stereo unspecified),inactive: -2.98%
13,COc1ccc(NP(C)(=O)Oc2ccccc2OC)cc1 (stereo unspecified),inactive: -0.777%
14,CN(C)CCOC(=O)C(O)(c1ccccc1)C1CCCCC1 (stereo unspecified),inactive: -2.71%
15,COc1ccc(OP(C)(=O)Nc2cccc(Br)c2)cc1 (stereo unspecified),inactive: -1.2%
16,CCCCCOc1ccc(NP(C)(=O)Oc2ccc(Cl)cc2Cl)cc1 (stereo unspecified),inactive: -0.985%
17,CP(=O)(Nc1ccccc1)Oc1ccc(F)cc1 (stereo unspecified),inactive: 2.75%
18,CCN(CC)CCCOC(=O)C(O)(c1ccccc1)C1CCCCC1 (stereo unspecified),inactive: 4.81%
19,Cc1c([N+](=O)[O-])cc([N+](=O)[O-])c(Br)c1[N+](=O)[O-],inactive: 2.71%
20,COc1ccc(OP(C)(=O)Nc2ccc(SC(F)(F)F)cc2)cc1 (stereo unspecified),inactive: -7.71%
21,CCOC(=O)c1ccc(NP(C)(=O)Oc2ccc(F)cc2)cc1 (stereo unspecified),inactive: -1.17%
22,O=C(OCCN1CCN(CCOCc2ccccc2)CC1)C(O)(c1ccccc1)c1ccccc1,inactive: 3.58%

row,SMILES,"activity, negative = active"
1,CC(C)c1ccc(OP(C)(=O)Nc2ccc(SC(F)(F)F)cc2)cc1 (stereo unspecified),inactive: -12.9%
2,CP(=O)(Nc1ccccc1F)Oc1ccccc1 (stereo unspecified),inactive: -9.21%
3,Cc1cc(C)cc(OP(C)(=O)Nc2ccccn2)c1 (stereo unspecified),inactive: -0.836%
4,CP(=O)(Nc1cccc(Br)c1)Oc1ccccc1 (stereo unspecified),inactive: 0.236%
5,Cc1ccc(C)c(NP(C)(=O)Oc2ccccc2)c1 (stereo unspecified),inactive: -9.31%
6,Cc1cc(C)cc(OP(C)(=O)Nc2ccc(C)cc2C)c1 (stereo unspecified),inactive: -2.36%
7,CCOC(=O)c1ccc(NP(C)(=O)Oc2cc(C)cc(C)c2)cc1 (stereo unspecified),inactive: -7.65%
8,COc1ccccc1OP(C)(=O)Nc1cccc(Br)c1 (stereo unspecified),inactive: 0.322%
9,CC1=NCCc2c1[nH]c1ccccc21.O=[N+]([O-])c1cc([N+](=O)[O-])c(O)c([N+](=O)[O-])c1,inactive: -19.2%
10,CCCOc1ccc(NP(C)(=O)Oc2ccc(Cl)cc2)cc1 (stereo unspecified),inactive: -17%
11,CP(=O)(Nc1ccc(SC(F)(F)F)cc1)Oc1ccccc1 (stereo unspecified),inactive: -10.3%
12,COc1ccccc1OP(C)(=O)Nc1c(C)cccc1C (stereo unspecified),inactive: -2.24%
13,CN1CCCCC1COC(=O)C1(O)c2ccccc2CCc2ccccc21 (stereo unspecified),inactive: 1.87%
14,CC1=C2N=C(C=C3N=C(C(C)=C4[N-][C@@](C)([C@@H]5N=C1[C@](C)(CCC(=O)NC[C@@H](C)OP(=O)([O-])O[C@H]1[C@@H](O)[C@@H](n6cnc7cc(C)c(C)cc76)O[C@@H]1CO)[C@H]5CC(N)=O)[C@@](C)(CC(N)=O)[C@@H]4CCC(N)=O)[C@@](C)(CC(N)=O)[C@@H]3CCC(N)=O)C(C)(C)[C@@H]2CCC(N)=O.[C-]#N.[Co+3],inactive: -1.37%
15,O=[N+]([O-])c1cc([N+](=O)[O-])c(Nc2nnnn2CCO)c([N+](=O)[O-])c1,inactive: -3.16%
16,Cc1nc2ccc3ccccc3c2s1.O=[N+]([O-])c1cc([N+](=O)[O-])c(O)c([N+](=O)[O-])c1,inactive: -8.03%
17,O=[N+]([O-])c1cc([N+](=O)[O-])c(-c2cnn(-c3ccccc3)c2)c([N+](=O)[O-])c1,inactive: 7.57%
18,O=[N+]([O-])c1cc([N+](=O)[O-])c(-n2nnc3ccccc32)c([N+](=O)[O-])c1,inactive: 3.88%
19,CP(=O)(Nc1ccccn1)Oc1ccc(Cl)cc1 (stereo unspecified),inactive: -5.96%
20,CCOP(C)(=S)SCC(=O)NC(C)C(=O)O (stereo unspecified),inactive: -1.04%
21,CCOC(=O)c1ccc(NP(C)(=O)Oc2ccc(OC)cc2)cc1 (stereo unspecified),inactive: -0.127%
22,O=[N+]([O-])c1cc([N+](=O)[O-])c(O)c([N+](=O)[O-])c1.c1ccc(Oc2ccncc2)cc1,inactive: -9.74%

row,SMILES,"activity, negative = active"
1,Cc1cc(C)cc(OP(C)(=O)Nc2ccc(SC(F)(F)F)cc2)c1 (stereo unspecified),inactive: 13.4%
2,CP(=O)(NC(=O)Nc1ccccc1)Oc1ccccc1 (stereo unspecified),inactive: -1.4%
3,CCc1ccc(OP(C)(=O)N2CCN(c3ccc([N+](=O)[O-])cc3)CC2)cc1 (stereo unspecified),inactive: 0.359%
4,CP(=O)(Oc1ccccc1)OC(c1ccccc1)C(F)(F)F (stereo unspecified),inactive: 14.1%
5,Cc1cccc(C)c1OP(C)(=O)Nc1ccc(SC(F)(F)F)cc1 (stereo unspecified),inactive: 2.47%
6,CP(=O)(Nc1ccc(SC(F)(F)F)cc1)Oc1ccc(Cl)cc1 (stereo unspecified),inactive: -4.24%
7,COc1ccccc1OP(C)(=O)Nc1ccccc1 (stereo unspecified),inactive: 13%
8,CP(=O)(Nc1ccccc1Br)Oc1ccccc1 (stereo unspecified),inactive: 8.68%
9,CP(=S)(Nn1cnnc1)Oc1ccccc1 (stereo unspecified),inactive: -9.84%
10,COc1ccc(OP(C)(=O)Nc2cccc(F)c2)cc1 (stereo unspecified),inactive: -21.7%
11,COc1ccccc1OP(C)(=O)Nc1cc(Cl)ccc1C (stereo unspecified),inactive: 4.42%
12,Cc1cc(C)cc(OP(C)(N)=O)c1 (stereo unspecified),inactive: 5.9%
13,CCOC(=O)c1ccc(NP(C)(=O)Oc2ccccc2)cc1 (stereo unspecified),inactive: 1.74%
14,Cc1ccc(NP(C)(=O)Oc2ccccc2)c(C)c1 (stereo unspecified),inactive: -1.27%
15,COc1ccccc1OP(C)(=O)Nc1ccc(C)cc1 (stereo unspecified),inactive: 0.519%
16,Cc1cccc(C)c1OP(C)(N)=O (stereo unspecified),inactive: -1.62%
17,CC(C)(C)c1ccc(OP(C)(=O)Nc2ccc(SC(F)(F)F)cc2)cc1 (stereo unspecified),inactive: -5.5%
18,O=[N+]([O-])c1ccc2c(c1)C=Nc1ccccc1O2,inactive: 0.344%
19,O=[N+]([O-])c1cc([N+](=O)[O-])c(Nc2cccnc2)c([N+](=O)[O-])c1,inactive: -0.34%
20,CCN(CC)CCCOC(=O)C(O)(c1ccccc1)c1ccccc1,inactive: 4.72%
